Experiment: Odor evaluation of soiled laundry, wash in buffer
Settings: particularly on T-shirt 1 and the sock

B1: Lento: Bacillus licheniformis polypeptide having amino acids 1-85 of SEQ ID NO: 2, purified from ATCC 14580 fermentation broth (protein)
chain: MKNHLYEKKKRKPLTRTIKATLAVLTMSIALVGGATVPSFAWVNPGYHYQYPSEGGTWRYGFVNAGLRSEYNHPTKVHGSTVQKL
modifications: Bacillus licheniformis ATCC 14580
effect on the odor of the items: reducing effect on the odor of the items

Source: patent publication US8092810B2, “Use of polypeptides having antimicrobial activity” (Novozymes A/S, priority 2006, dated 2012)
